This note sets out measurements from patent US20110033498.

Data set [1] concerns the target K63-linked poly-ubiquitin chains, P0CG47.
In data set [2] the target is poly-SUMO-2 chains (2-8), P61956.
For data set [3], the target named is 6His-tagged mouse ISG15 (6HismISG15) conjugated to cellular proteins in transfected 293T cells, Q64339.
In data set [4] the target is K48-linked poly-ubiquitin chains Ub2-7, P0CG47.

B1: CCHFV-L(1-169) recombinant protein (untagged, purified from E. coli) (protein)
chain: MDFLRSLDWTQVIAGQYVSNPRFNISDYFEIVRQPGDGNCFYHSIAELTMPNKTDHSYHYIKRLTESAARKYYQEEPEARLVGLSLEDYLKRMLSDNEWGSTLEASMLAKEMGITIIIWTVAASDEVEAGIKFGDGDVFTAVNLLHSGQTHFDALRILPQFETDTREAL
Consider B1, for which the “in vitro hydrolysis of poly-SUMO-3 chains, anti-SUMO-3 Western blot” value with poly-SUMO-3 chains (2-8) is “An identical result was obtained when poly-SUMO-3(2-8) chains were tested”. Besides, the “in vitro hydrolysis of polyubiquitin chains, SDS-PAGE and Coomassie staining” value was “cleaved both K48 and K63-linked ubiquitin chains into monomers” in data set [1]; “cleaved both K48 and K63-linked ubiquitin chains into monomers” in data set [4]. The “in vitro hydrolysis of poly-SUMO-2 chains, SDS-PAGE and Coomassie staining” value in data set [2] was “the core OTU domain was not able to hydrolyze the branched poly-SUMO-2 chains”. Moreover, the “in vitro deISGylation of Ni-NTA enriched His-ISG15 conjugates, Western blot” value in data set [3] is given as “L(1-169) was able to deconjugate ISGylated proteins”. Besides, the “in vitro processing of pro-ISG15, SDS-PAGE and Coomassie staining” value with pro-ISG15 was “L(1-169) processed a pro-ISG15 protein into its mature form”. In addition, the “in vitro processing of pro-Nedd8, Coomassie staining” value with pro-Nedd8, Q15843 was “L(1-169) hydrolyzed pro-Nedd8 into a mature form”.
